Assay results taken from patent US9403855B2 (priority 2010, dated 2016).

System: wild type (274H) neuraminidase of A/Hanoi/30408/2005 (H5N1) on 293T cells
Conditions: 274H:274Y=100:0; 10 nM ZB and excess OC at 300 nM

CC(=O)N[C@H]1[C@H]([C@H](OC(=O)NCc2cn(CCCCCNC(=O)CCCCC3SC[C@@H]4NC(=O)N[C@H]34)nn2)[C@H](O)CO)OC(C(=O)O)=C[C@@H]1NC(=N)N (stereo partly shown) [ZB]
percentage of ZB labeled cells (OC resistant ZB binding): 1.00%
